Values from PubChem BioAssay AID504761 (Drosophila RNAi Screening Center, 2011)
The screen tested about 22,000 reagents; this is a random part of those that have a named target and a result. Over the whole deposit, 116 (0.52%) got an active call. 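Calls depend on retest data that are not deposited; infection was ranked per plate without normalising between plates; the unit of the infection score is not given.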 Raw values vary from plate to plate and are shown uncorrected. The numbers tell different reagents against one gene apart. Names joined by + are all predicted targets of the reagent. Further read-outs or replicates are left out here. The record does not give: the amount of reagent, the time to read-out.

- Assay: 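Genome-wide fly cell screen for genes dengue virus requires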 (primary screen)
- Cells: D.Mel-2 cells from Drosophila
- Reagents: long dsRNA against Drosophila genes
- Challenge: infection with dengue virus type 2; dose and infection time not stated
- Measurement: 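Per well on two replicate plates, imaging gave the percent of cells positive for viral envelope protein, ranked by infection, and a nuclear count of cells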
- Scale: infection score: higher = more virus-infected cells; cell count: higher = more cells in the well
- Rule for the call: 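Low infection ranks in the two replicates (chance level up to 0.065) followed by a retest with a 1.5-fold or larger significant decrease, p below 0.05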
- Calls: active = confirmed: knock-down lowers infection; inactive = not picked or not confirmed

CG4364 #1 scored infection score, replicate 1 = 6.4; cell count, replicate 1 = 6531; inactive.
Against CG4364 #2 the deposit lists infection score, replicate 1 = 20.1; cell count, replicate 1 = 5238; inactive.
CG14130 scored infection score, replicate 1 = 1.13; cell count, replicate 1 = 6523; inactive.
Against CG17198 + CG17197 #1, the entry reads infection score, replicate 1 = 0.87; cell count, replicate 1 = 6231; inactive.
After knock-down of CG17198 + CG17197 #2 the results were infection score, replicate 1 = 2.7; cell count, replicate 1 = 6070; inactive.
CG5543 gave infection score, replicate 1 = 12.8; cell count, replicate 1 = 5535; inactive.
Against CG9171 #1 the deposit lists infection score, replicate 1 = 3.01; cell count, replicate 1 = 6319; inactive.
CG9171 #2 gave infection score, replicate 1 = 7.3; cell count, replicate 1 = 6521; inactive.
With knock-down of CG9171 #3, the screen gave infection score, replicate 1 = 2.38; cell count, replicate 1 = 6341; inactive.
Against CG42750 #1 the deposit lists cell count, replicate 1 = 481; inactive.
For CG42750 #2, the entry reads infection score, replicate 1 = 11.8; cell count, replicate 1 = 6315; inactive.
CG42750 #3 scored infection score, replicate 1 = 1.67; cell count, replicate 1 = 6220; inactive.
Depletion of CG42750 #4 gave: infection score, replicate 1 = 3.19; cell count, replicate 1 = 6529; inactive.
Depletion of CG42750 #5 came out at: infection score, replicate 1 = 27.1; cell count, replicate 1 = 6144; inactive.
CG42750 #6 showed infection score, replicate 1 = 4.04; cell count, replicate 1 = 5573; inactive.
